{
  "source": "paper PMC11236204",
  "about": "(PLOS Pathogens, 2024)",
  "key": {"[1]": {"system": "La Crosse virus (LACV)", "conditions": "rat neurons; 10μg/mL"}, "[2]": {"system": "La Crosse virus (LACV)", "conditions": "U2OS; 10μg/mL; MOI 0.1; 15hpi"}, "[3]": {"system": "California Encephalitis virus (CEV)", "conditions": "rat neurons; 10μg/mL; MOI 0.05; 24hpi"}, "[4]": {"system": "California Encephalitis virus (CEV)", "conditions": "U2OS; 10μg/mL; MOI 5; 24hpi"}, "[5]": {"system": "Punta Toro virus-Balliet (PTV)", "conditions": "U2OS; 10μg/mL; MOI 2; 15hpi"}, "[6]": {"system": "La Crosse virus (LACV)", "assay": "LACV infection, automated microscopy, rat neurons", "conditions": "four hours before infection, MOI 0.01, 24h"}, "[7]": {"system": "Cxcl1, Ccl2 RNA", "assay": "Cxcl1 and Ccl2 RNA levels in the mouse brain, 3 dpi", "conditions": "for CXCL1 RNA / 28s RNA: Figure 6D; for CXCL1 RNA / 28s RNA / CCL2 RNA / 28s RNA: Uninfected; for CCL2 RNA / 28s RNA: Figure 6E"}},
  "data": [
    {"smiles": "CCCCCCCCCCCCCCCC(=O)N[C@@H](CSCC(COC(=O)CCCCCCCCCCCCCCC)OC(=O)CCCCCCCCCCCCCCC)C(=O)N[C@@H](CO)C(=O)N[C@@H](CCCCN)C(=O)N[C@@H](CCCCN)C(=O)N[C@@H](CCCCN)C(=O)N[C@@H](CCCCN)C(=O)O", "note": "(some centres unmarked) [Pam3CSK4]", "values": [
      {"measurement": "LACV infection in neurons (plaque assay and qPCR)", "setting": "[1]", "value": "decreased"},
      {"measurement": "antiviral activity against LACV", "setting": "[2]", "value": "antiviral activity"},
      {"measurement": "CEV infection in neurons (plaque assay and qPCR)", "setting": "[3]", "value": "decreased"},
      {"measurement": "antiviral activity against CEV", "setting": "[4]", "value": "no antiviral activity"},
      {"measurement": "antiviral activity against PTV", "setting": "[5]", "value": "antiviral activity"},
      {"measurement": "LACV infection (dose response, microscopy)", "setting": "[6]", "value": "inhibited LACV"},
      {"measurement": "Ccl2 levels in the brain", "setting": "[7]; 5 PFU infection, 3 dpi", "value": "decreased Ccl2 levels"},
      {"measurement": "decrease of Cxcl1 levels relative to infected, vehicle-treated animals", "setting": "[7]; 5 PFU, 3 days", "value": "approximately 10 fold"},
      {"measurement": "CXCL1 RNA / 28s RNA", "setting": "[7]; mouse 1", "value": "4.40E-04"},
      {"measurement": "CXCL1 RNA / 28s RNA", "setting": "[7]; mouse 2", "value": "1.31E-04"},
      {"measurement": "CCL2 RNA / 28s RNA", "setting": "[7]; mouse 1", "value": "6.52E-05"},
      {"measurement": "CCL2 RNA / 28s RNA", "setting": "[7]; mouse 2", "value": "9.62E-06"},
      {"measurement": "Ccl2 expression in the brain", "setting": "[7]; uninfected animals, 3 dpi", "value": "induced Ccl2 expression"},
      {"measurement": "induction of Cxcl1 in the brain", "setting": "[7]; uninfected animals, 3 days", "value": "approximately 10 fold"}
    ]}
  ]
}
